Source: article PMC2955668, “Self-association of the Lentivirus protein, Nef” (Retrovirology, 2010)

Target: T1, SF2-HFNefG2A (HIV-1 (SF2), G2A)
T1 construct: Not myristoylated; also called myristoylation-defective tagged Nef; source: 293T, transfected; in membrane and cytosolic fractions
Assay: co-IP; membrane-associated protein fraction of co-transfected 293T cells, solubilised in Buffer B plus 0.5% IGEPAL CA-630; anti-HA monoclonal antibody precipitates the HF-tagged Nef, untagged Nef detected by Western blot; fractional dimerization (FD) estimated from band densities assuming strict dimers and a binomial distribution
Conditions: partners not purified

B1: SF2Nef (natural protein)
chain: not shown
modifications: N-terminal myristate (the paper calls Nef a myristoylated protein)
notes: also called untagged SF2Nef; HIV-1 Nef, allele SF2; source: 293T, transfected (pCG or pCGCG vector); in membrane and cytosolic fractions, in intact cells or in clarified whole cell lysate
- FD relative to that of SF2Nef with SF2-HFNef (FDG2A/FDSF2): 0.7
